Results on one molecule are retold here after patent US20020123056A1, “SGK2 and its uses” (priority 2000, published 2002).

For this test, the system named is SGK2. The note with it: Hi5 insect cells expressing GST-SGK2 treated four hours at 27° C. (100 nM microcysteine, 99.8 nM okadaic acid, 49.8 nM calyculin A).

Molecules are shown by their SMILES.

For the molecule `C=C1[C@@H](O)[C@@H]2O[C@]3(CC[C@H](/C=C/[C@@H](C)[C@@H]4CC(C)=C[C@@]5(O[C@H](C[C@@](C)(O)C(=O)O)CC[C@H]5O)O4)O3)CC[C@H]2O[C@@H]1[C@@H](O)C[C@H](C)[C@H]1O[C@@]2(CCCCO2)CC[C@H]1C`, the “No-Substrate (CCPM1)” value (purified GST-SGK2 assayed without substrate) was 2078 CCPM1. Also, the “CapK sub(CCPM1)” value (substrate CapK sub 1 mg/ml, 15 minutes at room temperature) was found to be 161553 CCPM1. For the same molecule, the “PKB sub (CCPM1)” value (substrate PKB sub 1 mg/ml, 15 minutes at room temperature) is 132171 CCPM1.
